From patent US5663139A (Hoechst Aktiengesellschaft, priority 1992, dated 1997)

Experiment: general procedure: peptide synthesis; 1,1'-carbonyldiimidazole/1-hydroxybenzotriazole, N-ethyldiisopropylamine

Substance | step yield (coupling step) [%] | step yield (late stage modification step) [%]
Ethyl 1-{2-[(N-tert-butyloxycarbonyl-L-naphthylalanyl-L-valyl)amino]-1-hydroxy-3-phenylpropyl},1-{1-[(N-tert-butyloxycarbonyl-L-naphthylalanyl-L-valyl)amino]-2-phenylethyl}phosphinate | 62 | –
1-{2-[(L-Naphthylalanyl-L-valyl)amino]-1-hydroxy-3-phenylpropyl},1-{1-[(L-naphthylalanyl-L-valyl)amino]-2-phenylethyl}phosphinic acid dihydrobromide | – | 50
Ethyl 1-{2-[(L-naphthylalanyl-L-valyl)amino]-1-hydroxy-3-phenylpropyl},1-{1-[(L- naphthylalanyl-L-valyl)amino]-2-phenylethyl}phosphinate bistrifluoroacetate | – | 80
